The source of these data is US7592419B2, “Macrocyclic inhibitors of hepatitis C virus NS3-serine protease” (Schering Corporation, priority 2003, dated 2009).

The chains behind the UniProt entries cited, without tags or fusion partners. Residues count along the entry.
UniProt P27958, 1027-1657 limits assumed: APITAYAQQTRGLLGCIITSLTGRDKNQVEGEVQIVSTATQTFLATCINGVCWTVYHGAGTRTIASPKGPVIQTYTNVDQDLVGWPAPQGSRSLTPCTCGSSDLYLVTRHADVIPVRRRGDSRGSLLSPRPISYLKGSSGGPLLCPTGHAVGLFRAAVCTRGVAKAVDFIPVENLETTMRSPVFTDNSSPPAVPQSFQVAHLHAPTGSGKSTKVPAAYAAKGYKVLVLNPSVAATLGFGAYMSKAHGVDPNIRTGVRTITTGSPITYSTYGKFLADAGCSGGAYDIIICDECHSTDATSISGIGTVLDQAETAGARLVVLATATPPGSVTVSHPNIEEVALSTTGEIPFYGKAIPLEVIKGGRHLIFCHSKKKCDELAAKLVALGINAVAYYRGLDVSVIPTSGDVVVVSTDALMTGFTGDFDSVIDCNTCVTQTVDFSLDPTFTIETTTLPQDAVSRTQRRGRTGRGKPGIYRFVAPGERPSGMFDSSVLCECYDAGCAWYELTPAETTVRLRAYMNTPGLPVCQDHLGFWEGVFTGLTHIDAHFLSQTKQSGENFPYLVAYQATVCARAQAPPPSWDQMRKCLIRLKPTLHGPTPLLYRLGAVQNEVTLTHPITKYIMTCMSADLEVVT
UniProt P27958, 1658-1711 partner limits assumed: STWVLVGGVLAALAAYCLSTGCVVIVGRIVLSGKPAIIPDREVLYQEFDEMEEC

The target of the assay is Recombinant heterodimeric HCV NS3/NS4A protease (strain 1a) (Hepatitis C virus genotype 1a, UniProt P27958). Nature of the assay: Spectrophotometric assay for HCV protease inhibitory activity (chromogenic ester substrates). On the procedure:
Assay for HCV Protease Inhibitory Activity:
Spectrophotometric Assay: Spectrophotometric assays for the HCV serine protease was performed on the inventive compounds by following the procedure described by R. Zhang et al, Analytical Biochemistry, 270 (1999) 268-275, the disclosure of which is incorporated herein by reference. The assay based on the proteolysis of chromogenic ester substrates is suitable for the continuous monitoring of HCV NS3 protease activity. The substrates were derived from the P side of the NS5A-NS5B junction sequence (Ac-DTEDVVX(Nva), where X=A or P) whose C-terminal carboxyl groups were esterified with one of four different chromophoric alcohols (3- or 4-nitrophenol, 7-hydroxy-4-methyl-coumarin, or 4-phenylazophenol). Presented below are the synthesis, characterization and application of these novel spectrophotometric ester substrates to high throughput screening and detailed kinetic evaluation of HCV NS3 protease inhibitors. Materials and Methods:
Enzyme Preparation: Recombinant heterodimeric HCV NS3/NS4A protease (strain 1a) was prepared by using the procedures published previously (D. L. Sali et al, Biochemistry, 37 (1998) 3392-3401). Protein concentrations were determined by the Biorad dye method using recombinant HCV protease standards previously quantified by amino acid analysis. Prior to assay initiation, the enzyme storage buffer (50 mM sodium phosphate pH 8.0, 300 mM NaCl, 10% glycerol, 0.05% lauryl maltoside and 10 mM DTT) was exchanged for the assay buffer (25 mM MOPS pH 6.5, 300 mM NaCl, 10% glycerol, 0.05% lauryl maltoside, 5 μM EDTA and 5 μM DTT) utilizing a Biorad Bio-Spin P-6 prepacked column.
Protease Assay: HCV protease assays were performed at 30° C. using a 200 μl reaction mix in a 96-well microtiter plate. Assay buffer conditions (25 mM MOPS pH 6.5, 300 mM NaCl, 10% glycerol, 0.05% lauryl maltoside, 5 μM EDTA and 5 μM DTT) were optimized for the NS3/NS4A heterodimer (D. L. Sali et al, ibid.)). Typically, 150 μl mixtures of buffer, substrate and inhibitor were placed in wells (final concentration of DMSO≦4% v/v) and allowed to preincubate at 30° C. for approximately 3 minutes. Fifty μls of prewarmed protease (12 nM, 30° C.) in assay buffer, was then used to initiate the reaction (final volume 200 μl). The plates were monitored over the length of the assay (60 minutes) for change in absorbance at the appropriate wavelength (340 nm for 3-Np and HMC, 370 nm for PAP, and 400 nm for 4-Np) using a Spectromax Plus microtiter plate reader equipped with a monochrometer (acceptable results can be obtained with plate readers that utilize cutoff filters). Proteolytic cleavage of the ester linkage between the Nva and the chromophore was monitored at the appropriate wavelength against a no enzyme blank as a control for non-enzymatic hydrolysis. The evaluation of substrate kinetic parameters was performed over a 30-fold substrate concentration range (−6-200 μM). Initial velocities were determined using linear regression and kinetic constants were obtained by fitting the data to the Michaelis-Menten equation using non-linear regression analysis (Mac Curve Fit 1.1, K. Raner). Turnover numbers (kcat) were calculated assuming the enzyme was fully active.
Evaluation of Inhibitors and Inactivators: The inhibition constants (Ki*) for the competitive inhibitors Ac-D-(D-Gla)-L-1-(Cha)-C-OH (27), Ac-DTEDVVA(Nva)-OH and Ac-DTEDWP(Nva)-OH were determined experimentally at fixed concentrations of enzyme and substrate by plotting vo/vi vs. inhibitor concentration ([I]o) according to the rearranged Michaelis-Menten equation for competitive inhibition kinetics: vo/vi=1+[I]o/(Ki(1+[S]o/Km)), where vo is the uninhibited initial velocity, vi is the initial velocity in the presence of inhibitor at any given inhibitor concentration ([I]o) and [S]o is the substrate concentration used. The resulting data were fitted using linear regression and the resulting slope, 1/(Ki(1+[S]o/Km), was used to calculate the Ki* value. […]

Setting [1] is: read-out: Activity Ki*, Table 3, 30° C., pH 6.5.
Setting [2] is: read-out: Binding Activity (Ki rating), Table 1, 30° C., pH 6.5.

The term Ki denotes the dissociation constant of the complex between target and ligand, obtained from inhibition or displacement.

SMILES strings stand for the structures. Where two headings read alike, the source gives them in different places. The structures given here were assigned with low confidence; some may be wrong.

`CN(C[C@@H](NC(=O)N[C@H]1CCCCCCCCC[C@@H](C(=O)C(N)=O)NC(=O)[C@@H]2[C@@H]3[C@H](CN2C1=O)C3(C)C)C(C)(C)C)S(=O)(=O)c1cccs1`: the Ki under setting [1] turned out to be 2 nM and the Ki under setting [2] is below 100 nM.

In the case of `CN(C[C@@H](NC(=O)N[C@H]1CCCCCCCCC[C@@H](C(=O)C(N)=O)NC(=O)[C@@H]2[C@@H]3[C@H](CN2C1=O)C3(C)C)C(C)(C)C)S(C)(=O)=O`, the Ki under setting [1] stood at 3 nM and the Ki under setting [2] was below 100 nM.

As for `C=CCNC(=O)C(=O)[C@@H]1CCCCCCCCC[C@H](NC(=O)N[C@H](CN(C)S(C)(=O)=O)C(C)(C)C)C(=O)N2C[C@H]3[C@@H]([C@H]2C(=O)N1)C3(C)C`, the Ki is, setting by setting: under setting [1], 3 nM; under setting [2], below 100 nM.

As for `C=CCNC(=O)C(=O)[C@@H]1CCCCCCCCC[C@H](NC(=O)N[C@H](CN(C)S(=O)(=O)c2cccs2)C(C)(C)C)C(=O)N2C[C@H]3[C@@H]([C@H]2C(=O)N1)C3(C)C`, the Ki under setting [1] was found to be 3 nM and the inhibition constant (Ki) under setting [2] was below 100 nM.
